PubChem BioAssay AID624099, ICCB-Longwood – 2012
Here is an unselected part of about 21,000 deposited reagents. 497 of them (2.4%) count as active. 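Higher z means weaker E2 silencing; only reporter increases were scored, and knock-downs that hurt cell survival may mask genuine repressor factors.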 The numbers tell different reagents against one gene apart.

Test: 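Knock-downs relieving repression by E2 of an HPV18 LCR luciferase reporter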 (primary screen)
Cell system: human C33A cervical carcinoma cells (HPV-negative) stably expressing BPV1 E2 and an HPV18 LCR luciferase reporter
Reagent: siRNA pool against human genes, 40 nM
Timing: 72 h
Measurement: 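HPV18 LCR reporter light per well, converted to plate-wise z-scores that exclude control wells, and averaged over triplicate plates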
Scale: mean z-score and z-score: higher = stronger reporter signal, weaker E2 silencing
Call rule: 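Hit if mean z-score reaches 2 and two or more of three replicate z-scores also reach 2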

Which result is listed for LARP6?
mean z-score: -0.53; z-score, replicate A: -0.81; z-score, replicate B: -0.74; z-score, replicate C: -0.05; outcome: inactive

Which result is listed for DLGAP1 #1?
mean z-score: -0.16; z-score, replicate A: 0.04; z-score, replicate B: -0.29; z-score, replicate C: -0.22; outcome: inactive

For DLGAP1 #2, what was measured?
mean z-score: 1.48; z-score, replicate A: 1.55; z-score, replicate B: 1.42; outcome: inactive

Which result is listed for DLGAP1 #3?
mean z-score: -0.45; z-score, replicate A: -0.52; z-score, replicate B: -0.49; z-score, replicate C: -0.35; outcome: inactive

With NTAQ1, how do the results read?
mean z-score: 1.8; z-score, replicate A: 1.97; z-score, replicate B: 1.72; z-score, replicate C: 1.69; outcome: inactive

What did the screen give for BAZ2B?
mean z-score: 1.01; z-score, replicate A: 0.45; z-score, replicate B: 0.9; z-score, replicate C: 1.67; outcome: inactive

What is on record for KCNIP2?
mean z-score: 1.43; z-score, replicate B: 1.45; z-score, replicate C: 1.41; outcome: inactive

Which result is listed for FIG4?
mean z-score: -0.24; z-score, replicate A: -0.23; z-score, replicate B: -0.41; z-score, replicate C: -0.06; outcome: inactive

What is on record for CDK5RAP3?
mean z-score: -0.68; z-score, replicate A: -0.73; z-score, replicate B: -0.49; z-score, replicate C: -0.83; outcome: inactive

For ZNF564, what does the deposit list?
mean z-score: 0.46; z-score, replicate A: 0.6; z-score, replicate B: 0.09; z-score, replicate C: 0.69; outcome: inactive

For ZC3H4, what was measured?
mean z-score: 0.23; z-score, replicate A: 0.82; z-score, replicate B: -0.11; z-score, replicate C: -0.01; outcome: inactive

Which result is listed for RCC1?
mean z-score: 0.97; z-score, replicate A: 1; z-score, replicate B: 1.29; z-score, replicate C: 0.63; outcome: inactive

For TCP11L1, what was measured?
mean z-score: 0.21; z-score, replicate A: 0.42; z-score, replicate B: 0.16; z-score, replicate C: 0.05; outcome: inactive

With GLIPR1L1, how do the results read?
mean z-score: -0.9; z-score, replicate A: -0.99; z-score, replicate B: -0.74; z-score, replicate C: -0.97; outcome: inactive

For PSPC1, what was measured?
mean z-score: -0.29; z-score, replicate A: -0.22; z-score, replicate B: -0.11; z-score, replicate C: -0.55; outcome: inactive

What did the screen give for SCN11A?
mean z-score: -0.9; z-score, replicate A: -0.9; z-score, replicate B: -0.73; z-score, replicate C: -1.07; outcome: inactive

What did the screen give for UBE2L6?
mean z-score: -0.36; z-score, replicate A: -0.08; z-score, replicate B: -0.3; z-score, replicate C: -0.7; outcome: inactive

How did the screen score NCKAP1L?
mean z-score: 3.29; z-score, replicate A: 3.22; z-score, replicate B: 3.21; z-score, replicate C: 3.44; outcome: active

What is on record for LOC389398 (retired record)?
mean z-score: -0.03; z-score, replicate A: 0.03; z-score, replicate B: -0.01; z-score, replicate C: -0.12; outcome: inactive

What did the screen give for HSPB7?
mean z-score: -0.56; z-score, replicate A: -0.03; z-score, replicate B: -0.81; z-score, replicate C: -0.84; outcome: inactive

With SPI1, what was measured?
mean z-score: -0.25; z-score, replicate A: -0.37; z-score, replicate B: 0.43; z-score, replicate C: -0.8; outcome: inactive

How did the screen score HSPB2?
mean z-score: 0.19; z-score, replicate A: 0.38; z-score, replicate B: 0.1; z-score, replicate C: 0.09; outcome: inactive

What is on record for NCOA1?
mean z-score: 0.52; z-score, replicate A: 0.52; z-score, replicate B: 0.49; z-score, replicate C: 0.54; outcome: inactive

With CRADD, what does the deposit list?
mean z-score: -0.19; z-score, replicate A: -1.12; z-score, replicate B: 0.28; z-score, replicate C: 0.28; outcome: inactive

With CA10, what does the deposit list?
mean z-score: 0.58; z-score, replicate A: 0.28; z-score, replicate B: 0.75; z-score, replicate C: 0.7; outcome: inactive

For MFAP5, what does the deposit list?
mean z-score: 0.98; z-score, replicate A: 1.08; z-score, replicate B: 1.12; z-score, replicate C: 0.74; outcome: inactive

For MAP4K5, what does the deposit list?
mean z-score: 0.8; z-score, replicate A: 0.93; z-score, replicate B: 0.47; z-score, replicate C: 0.99; outcome: inactive
